Pooled drug test results. Numbers come from NIAID ChemDB, via PubChem.

All rows: tests in culture; organism: Aspergillus niger; read-out: MIC

Rows are shuffled and stem from different studies.

smiles | strain | value
N#[N+]c1nc(-c2ccccc2F)[nH]c1C(=O)N1CCCC1 | L32 | >200 µg/mL
COC(=O)[C@]1(C)CCC[C@]2(C)c3ccc(C(C)C)cc3-c3[nH]c4c(Br)cccc4c3C12 | CGMCC3.316 | >100 µg/mL
CCC(C)n1ncn(-c2ccc(N3CCN(c4ccc(OC[C@H]5CO[C@](Cn6cncn6)(c6ccc(Cl)cc6Cl)O5)cc4)CC3)cc2)c1=O | - | 8 µg/mL
Cc1nc([N+]#N)c(C(=O)N2CCCC2)[nH]1 | L32 | 100 µg/mL
COc1ccc2c(c1)C(=O)C(c1cccnc1)=[N+]2[O-] | - | >125 µg/mL
C[C@@H]1[C@H](O)[C@@H](C)/C=C/C=C/CC/C=C/C=C/C=C/C=C/C(O[C@H]2O[C@H](C)[C@@H](O)[C@H](N)[C@@H]2O)CC2O[C@](O)(CC(O)C(O)CCC(O)CC(O)CC(O)CC(=O)O[C@H]1C)CC(O)C2C(=O)O | - | 10 µM
Nc1c(/C=N/NC(=O)c2ccncc2)cccc1CN1CCOCC1 | MTCC 8184 | 3.12 µg/mL
C[C@H]1[C@H](O)[C@@H](C)/C=C/C=C/C=C/C=C/C=C/C=C/C=C/[C@H](O[C@@H]2O[C@H](C)[C@@H](O)[C@H](N)[C@@H]2O)C[C@@H]2O[C@](O)(C[C@@H](O)C[C@@H](O)CC[C@H](O)[C@@H](O)C[C@@H](O)CC(=O)O[C@H]1C)C[C@H](O)[C@H]2C(=O)O | - | 0.25–2 µg/mL
C[C@H]1[C@H](O)[C@@H](C)/C=C/C=C/C=C/C=C/C=C/C=C/C=C/[C@H](O[C@@H]2O[C@H](C)[C@@H](O)[C@H](N)[C@@H]2O)C[C@@H]2O[C@](O)(C[C@@H](O)C[C@@H](O)CC[C@H](O)[C@@H](O)C[C@@H](O)CC(=O)O[C@H]1C)C[C@H](O)[C@H]2C(=O)O | CCUG 18919 | 8 µg/mL
CCc1nc([N+]#N)c(C(=O)N2CCCC2)[nH]1 | L32 | 200 µg/mL
CC[C@@H]([C@H](C)O)n1ncn(-c2ccc(N3CCN(c4ccc(OC[C@@H]5CO[C@@](Cn6cncn6)(c6ccc(F)cc6F)C5)cc4)CC3)cc2)c1=O | - | 0.125–2 µg/mL
CC1=C(C)C(=O)O[C@@H]([C@H](O)[C@]2(O)CC[C@]3(O)[C@@H]2CC[C@H]2[C@H]3CC=C3C=CCC(=O)[C@@]32C)C1 | - | 300 µg/mL
CCCCN(CCCC)Cc1cccc(/C=N/NC(=O)c2ccncc2)c1N | MTCC 8184 | 12.5 µg/mL
COC(=O)[C@]1(C)CCC[C@]2(C)c3ccc(C(C)C)cc3CCC12 | CGMCC3.316 | >100 µg/mL
CCC(C)CC(C)CCCCCCCCC(=O)N[C@H]1C[C@@H](O)[C@H](NCCN)NC(=O)[C@@H]2[C@@H](O)CCN2C(=O)[C@H]([C@H](O)CCN)NC(=O)[C@H]([C@H](O)[C@@H](O)c2ccc(O)cc2)NC(=O)[C@@H]2C[C@@H](O)CN2C(=O)[C@H]([C@@H](C)O)NC1=O | - | 0.015–8 µg/mL
CCC(C)CC(C)/C=C(\C)C1OC(c2cc(C3(O)CCC(=O)CC3O)cn(C)c2=O)CCC1C | - | 10 µg/mL
O=C1C(c2ccccc2)=[N+]([O-])c2ccccc21 | - | 62.5 µg/mL
COC(=O)[C@]1(C)CCC[C@]2(C)c3ccc(C(C)C)cc3-c3[nH]c4ccc(Br)cc4c3C12 | CGMCC3.316 | >100 µg/mL
O=C(O)c1ccc[nH]c1=S | MTCC 1349 | 420 µg/mL
CN(C)Cc1cccc(/C=N/NC(=O)c2ccncc2)c1N | MTCC 8184 | 50 µg/mL
C[C@@H]1[C@H](O)[C@@H](C)/C=C/C=C/CC/C=C/C=C/C=C/C=C/C(O[C@H]2O[C@H](C)[C@@H](O)[C@H](N)[C@@H]2O)CC2O[C@](O)(CC(O)C(O)CCC(O)CC(O)CC(O)CC(=O)O[C@H]1C)CC(O)C2C(=O)O | MTCC 282 | 100 µg/mL
Oc1cccc2cc(Br)cnc12 | ATCC 1004 | 7 µg/mL
C[C@@H]1O[C@@H](OC[C@H]2O[C@@H](Oc3c(-c4ccc(O)cc4)oc4cc(O)cc(O)c4c3=O)[C@H](O)[C@@H](O)[C@@H]2O)[C@H](O)[C@H](O)[C@H]1O | - | 160 µg/mL
CCCCCOc1ccc(-c2ccc(-c3ccc(C(=O)N[C@H]4C[C@@H](O)[C@@H](O)NC(=O)[C@@H]5[C@@H](O)[C@@H](C)CN5C(=O)[C@H]([C@H](C)O)NC(=O)[C@H]([C@H](O)[C@@H](O)c5ccc(O)cc5)NC(=O)[C@@H]5C[C@@H](O)CN5C(=O)[C@H]([C@H](C)O)NC4=O)cc3)cc2)cc1 | - | 0.015–0.03 µg/mL
Oc1cc(Cl)cc2cccnc12 | ATCC 1004 | 3 µg/mL
COC(=O)[C@]1(C)CCC[C@]2(C)c3ccc(C(C)C)cc3-c3[nH]c4ccc([N+](=O)[O-])cc4c3C12 | CGMCC3.316 | >100 µg/mL
Nc1c(/C=N/NC(=O)c2ccncc2)cccc1CN1CCCCC1 | MTCC 8184 | 50 µg/mL
COc1ccccc1N1CCN(CCCN2C(=O)CCC(c3ccccc3)C2=O)CC1 | DSM 1988 | >100 µM
N#[N+]c1nc(-c2ccccc2Cl)[nH]c1C(=O)N1CCCC1 | L32 | 50 µg/mL
Oc1c(Br)ccc2cccnc12 | ATCC 1004 | 3 µg/mL
Nc1c(/C=N/NC(=O)c2ccncc2)cccc1CN1CCNCC1 | MTCC 8184 | 3.12 µg/mL
O=C1C(c2ccccn2)=[N+]([O-])c2ccccc21 | - | 15.63 µg/mL
C[C@@H]1[C@H](O)[C@@H](C)/C=C/C=C/CC/C=C/C=C/C=C/C=C/C(O[C@H]2O[C@H](C)[C@@H](O)[C@H](N)[C@@H]2O)CC2O[C@](O)(CC(O)C(O)CCC(O)CC(O)CC(O)CC(=O)O[C@H]1C)CC(O)C2C(=O)O | MTCC 282 | 100 µg/mL
O=C1C(c2ccc(Cl)cc2)=[N+]([O-])c2cc[n+]([O-])cc21 | - | 31.25 µg/mL
Oc1cccc2c(Cl)ccnc12 | ATCC 1004 | 4 µg/mL
N#[N+]c1nc[nH]c1C(=O)N1CCCC1 | L32 | 200 µg/mL
COc1ccc(C2=[N+]([O-])c3ccccc3C2=O)cc1 | - | >125 µg/mL
O=C1CCC(c2ccccc2)C(=O)N1CCCN1CCN(c2ncccn2)CC1 | DSM 1988 | >100 µM
Oc1c(Cl)ccc2cccnc12 | ATCC 1004 | 2 µg/mL
COc1ccccc1N1CCN(CCCCN2C(=O)CCC(c3ccccc3)C2=O)CC1 | DSM 1988 | >100 µM
CCN(CC)Cc1cccc(/C=N/NC(=O)c2ccncc2)c1N | MTCC 8184 | 12.5 µg/mL
COC(=O)[C@]1(C)CCC[C@]2(C)c3ccc(C(C)C)cc3-c3[nH]c4c(Cl)cccc4c3C12 | CGMCC3.316 | >100 µg/mL
COc1cc(O)c2c(=O)c(OC)c(-c3ccc(OC4O[C@H](CO)[C@@H](O)[C@H](O)[C@H]4O)cc3)oc2c1 | - | 160 µg/mL

A second listing of 4 rows from above:

smiles	strain	value
O=C1C(c2ccccc2)=[N+]([O-])c2ccccc21	-	62.5 µg/mL
COC(=O)[C@]1(C)CCC[C@]2(C)c3ccc(C(C)C)cc3-c3[nH]c4ccc([N+](=O)[O-])cc4c3C12	CGMCC3.316	>100 µg/mL
C[C@@H]1[C@H](O)[C@@H](C)/C=C/C=C/CC/C=C/C=C/C=C/C=C/C(O[C@H]2O[C@H](C)[C@@H](O)[C@H](N)[C@@H]2O)CC2O[C@](O)(CC(O)C(O)CCC(O)CC(O)CC(O)CC(=O)O[C@H]1C)CC(O)C2C(=O)O	MTCC 282	100 µg/mL
O=C(O)c1ccc[nH]c1=S	MTCC 1349	420 µg/mL

Blank or dashed fields: not listed here. Two numbers with a dash give a range or band.